Compound potency records, mixed from different reports. Data source: NIAID ChemDB in PubChem.

All rows: target-level tests; organism: HIV-1; target: Protease; endpoint: IC50

ICn is the concentration giving n% inhibition.

{"SMILES": "CC(C)[C@H](NC(=O)[C@H](C)NC(=O)OCc1ccccc1)C(=O)N[C@@H](Cc1ccccc1)C(=O)[C@H](O)[C@H](Cc1ccccc1)NC(=O)[C@@H](NC(=O)[C@H](C)NC(=O)OCc1ccccc1)C(C)C", "read by": "fluorescence", "result": "0.0053 µM"}
{"SMILES": "CC(C)(C)NC(=O)[C@@H]1CSCN1C(=O)[C@@H](O)[C@H](Cc1ccccc1)NC(=O)c1ccc(O)cc1", "read by": "HPLC", "result": ">5 µM"}
{"SMILES": "CC(C)[C@H](NC(=O)CCc1cccnc1)C(=O)N[C@@H](Cc1ccccc1)[C@@H](O)[C@H](O)[C@H](Cc1ccccc1)NC(=O)[C@@H](NC(=O)CCc1cccnc1)C(C)C", "read by": "fluorescence", "result": ">0.001 µM"}
{"SMILES": "C[C@@]12OC(=O)N[C@]1(C)c1ccccc1[C@@H]2C1=CN[C@@](Cc2ccccc2)(C[C@H](O)[C@H](Cc2ccccc2)NC(O)O[C@H]2CCOC2)C1=O", "result": "0.0004 µM"}
{"SMILES": "CC(C)[C@H](NC(=O)OCCN1CCOCC1)C(=O)N[C@@H](Cc1ccccc1)C(O)[C@H](Cc1ccccc1)NC(=O)[C@@H](NC(=O)OCCN1CCOCC1)C(C)C", "read by": "fluorescence", "result": ">0.1 µM"}
{"SMILES": "CC[C@H](C)[C@H](NC(=O)[C@@H]1CCCN1C[C@H](O)[C@H](Cc1ccccc1)NC(=O)[C@H](CC(N)=O)NC(=O)[C@H](CC(C)C)NC(C)=O)C(=O)N[C@H](C(=O)OC)C(C)C", "read by": "fluorescence", "result": "0.009 µM"}
{"SMILES": "O=C(O[C@@H]1O[C@@H]2COC(=O)c3cc(O)c(O)c(O)c3-c3c(cc(O)c(O)c3O)C(=O)O[C@H]([C@H]1O)[C@@H]2O)c1cc(O)c(O)c(O)c1", "read by": "fluorescence", "result": "20.7 µM"}
{"SMILES": "CC(C)(C)OC(=O)N[C@@H](Cc1ccccc1)[C@H](O)CNC[C@H](O)[C@H](Cc1ccccc1)NC(=O)OC(C)(C)C", "read by": "HPLC", "setting": "pH 5.5", "result": ">10 µM"}
{"SMILES": "CC(C)[C@H](NC(=O)[C@H](C)NC(=O)OCc1ccccc1)C(=O)N[C@@H](Cc1ccccc1)C[C@H](O)[C@H](Cc1ccccc1)NC(=O)OCc1cncs1", "read by": "fluorescence", "result": "0.005 µM"}
{"SMILES": "CC(C)[C@H](NC(=O)OCc1ccccn1)C(=O)N[C@@H](Cc1ccccc1)[C@H](O)[C@@H](O)[C@H](Cc1ccccc1)NC(=O)[C@@H](NC(=O)OCc1ccccn1)C(C)C", "read by": "fluorescence", "result": "<0.001 µM"}
{"SMILES": "CC(C)(C)NC(=O)[C@@H]1CCCN1C(=O)[C@@H](O)[C@H](Cc1ccccc1)NC(=O)OCc1ccccc1", "read by": "fluorescence", "result": "2 µM"}
{"SMILES": "Cc1cccc(C(=O)N[C@@H](Cc2ccccc2)[C@H](O)C(=O)N2CSC[C@H]2C(=O)NC(C)(C)C)c1C", "read by": "HPLC", "result": ">5 µM"}
{"SMILES": "CCc1ccccc1C[C@H](NC(=O)OC(C)(C)C)[C@H](O)CNC[C@@H](O)[C@H](Cc1ccccc1)NC(=O)OC(C)(C)C", "read by": "HPLC", "setting": "pH 5.5", "result": "<10 µM"}
{"SMILES": "CC(C)[C@H](NC(=O)N(C)C)C(=O)N[C@@H](Cc1ccccc1)C[C@H](O)[C@H](Cc1ccccc1)NC(=O)OCc1cncs1", "read by": "fluorescence", "result": "~0.0005 µM"}
{"SMILES": "C/C=C(/C)C(=O)OC[C@@]12[C@H](O)C[C@]3(C)C(=CC[C@@H]4[C@@]5(C)CC[C@H](O[C@@H]6O[C@H](C(=O)O)[C@@H](O[C@@H]7O[C@H](CO)[C@@H](O)[C@H](O)[C@H]7O)[C@H](O)[C@H]6O[C@@H]6O[C@H](CO)[C@@H](O)[C@H](O)[C@H]6O)[C@](C)(CO)[C@@H]5CC[C@]43C)[C@@H]1CC(C)(C)[C@@H](O)[C@@H]2O", "read by": "HPLC", "result": ">100 µM"}
{"SMILES": "CC(C)(C)NC(=O)[C@@H]1CSCN1C(=O)[C@@H](O)[C@H](Cc1ccccc1)NC(=O)c1cc(O)cc(O)c1", "read by": "HPLC", "result": ">5 µM"}
{"SMILES": "CC[C@H](C)[C@H](NC(=O)[C@@H]1CCCN1C[C@@H](O)[C@H](Cc1ccccc1)NC(=O)[C@H](CC(N)=O)NC(=O)[C@H](CC(C)C)NC(=O)[C@H](CO)NC(C)=O)C(=O)N[C@H](C(=O)OC)C(C)C", "read by": "fluorescence", "result": "0.022 µM"}
{"SMILES": "CC(C)(C)OC(=O)N[C@@H](Cc1ccccc1)[C@H](O)CNC[C@@H](O)[C@H](Cc1ccc(OCCc2ccccn2)cc1)NC(=O)OC(C)(C)C", "read by": "HPLC", "setting": "pH 5.5", "result": "<10 µM"}
{"SMILES": "CC(C)[C@H](NC(=O)[C@H](C)NC(=O)OCc1ccccc1)C(=O)N[C@@H](Cc1ccccc1)C[C@H](O)[C@H](Cc1ccccc1)NC(=O)[C@@H](NC(=O)[C@H](C)NC(=O)OCc1ccccc1)C(C)C", "read by": "fluorescence", "result": "0.0133 µM"}
{"SMILES": "CC(C)(C)OC(=O)N[C@@H](Cc1ccccc1)[C@H](O)CNC[C@@H](O)[C@H](Cc1ccccc1)NC(=O)[C@@H](O)C(C)(C)C", "read by": "HPLC", "setting": "pH 5.5", "result": "<10 µM"}
{"SMILES": "CC[C@H](C)[C@@H]1NC(=O)[C@@H](NC[C@H](O)[C@H](Cc2ccccc2)NC(=O)[C@@H](NC(=O)[C@H](CC(C)C)NC(C)=O)C(C)C)Cc2ccc(cc2)OCCCNC1=O", "read by": "fluorescence", "result": "0.002 µM"}
{"SMILES": "CC(C)(C)NC(=O)[C@@H]1CSCN1C(=O)[C@@H](O)[C@H](Cc1ccccc1)NC(=O)c1ccccc1", "read by": "HPLC", "result": "~5 µM"}
{"SMILES": "COc1c(O)cc2oc3cc(O)c(CC=C(C)C)c(O)c3c(=O)c2c1CC=C(C)C", "read by": "HPLC", "result": "5.12 ± 0.41 µM"}
{"SMILES": "CC(C)[C@H](CC(=O)N(C)Cc1ccccn1)C(=O)N[C@@H](Cc1ccccc1)[C@@H](O)[C@H](O)[C@H](Cc1ccccc1)NC(=O)[C@@H](CC(=O)N(C)Cc1ccccn1)C(C)C", "read by": "fluorescence", "result": ">0.01 µM"}
{"SMILES": "C/C=C(\\C)C(=O)O[C@H]1[C@H](O)[C@]2(COC(C)=O)[C@H](O)C[C@]3(C)C(=CC[C@@H]4[C@@]5(C)CC[C@H](O[C@@H]6O[C@H](C(=O)O)[C@@H](O[C@@H]7O[C@H](CO)[C@@H](O)[C@H](O)[C@H]7O)[C@H](O)[C@H]6O[C@@H]6O[C@H](CO)[C@@H](O)[C@H](O)[C@H]6O)[C@](C)(CO)[C@@H]5CC[C@]43C)[C@@H]2CC1(C)C", "read by": "HPLC", "result": ">100 µM"}
{"SMILES": "CCC(C)[C@H](NC(=O)CCCCCCCCCCCCCCC(=O)N[C@@H](CC(C)C)C(=O)N[C@@H](CC(N)=O)C(=O)N[C@@H](Cc1ccccc1)C(=O)O)C(=O)N[C@H](C(=O)N[C@@H](CC(C)C)C(=O)N[C@@H](Cc1c[nH]c2ccccc12)C(=O)O)C(C)O", "read by": "fluorescence", "result": "1.1 µM"}
{"SMILES": "C/C=C(\\C)C(=O)O[C@H]1[C@H](O)C(C)(C)C[C@H]2C3=CC[C@@H]4[C@@]5(C)CC[C@H](O[C@@H]6O[C@H](C(=O)O)[C@@H](O[C@@H]7O[C@H](CO)[C@@H](O)[C@H](O)[C@H]7O)[C@H](O)[C@H]6O[C@@H]6O[C@H](CO)[C@@H](O)[C@H](O)[C@H]6O)[C@](C)(CO)[C@@H]5CC[C@@]4(C)[C@]3(C)C[C@@H](O)[C@]21COC(C)=O", "read by": "HPLC", "result": ">100 µM"}
{"SMILES": "CC(=O)O[C@H]1CC(=O)OC(C)(C)[C@@H]2CC(=O)[C@]3(C)[C@H](CC[C@@]4(C)[C@H](c5ccoc5)OC(=O)[C@H]5O[C@]543)[C@@]12C", "result": "<20 µM"}

2 of the rows above, restated:

SMILES,read by,setting,result
CC(C)(C)NC(=O)[C@@H]1CSCN1C(=O)[C@@H](O)[C@H](Cc1ccccc1)NC(=O)c1cc(O)cc(O)c1,HPLC,-,>5 µM
C/C=C(\C)C(=O)O[C@H]1[C@H](O)[C@]2(COC(C)=O)[C@H](O)C[C@]3(C)C(=CC[C@@H]4[C@@]5(C)CC[C@H](O[C@@H]6O[C@H](C(=O)O)[C@@H](O[C@@H]7O[C@H](CO)[C@@H](O)[C@H](O)[C@H]7O)[C@H](O)[C@H]6O[C@@H]6O[C@H](CO)[C@@H](O)[C@H](O)[C@H]6O)[C@](C)(CO)[C@@H]5CC[C@]43C)[C@@H]2CC1(C)C,HPLC,-,>100 µM

An empty or dashed field is not shown. Rows are shuffled and stem from different studies.